For the assay, the target named is T1, gp120 (Human immunodeficiency virus type 1 group M subtype B, UniProt P03375).
T1 construct: loaded with 25 μl of 6 mg/ml of gp120 (25 μM) in PBS pH 7.2
The format is binding, HIV. Conditions: micro-equilibrium dialysis, PBS pH 7.2, 12 hrs at 23° C.; average and deviation of five repetitions. Here is the method:
If needed, experiments were repeated within a smaller concentration range (i.e., 10 trials from 0.01 to 0.10 mmol). A total volume of either 50 μl was used in each analysis. Analytes were loaded in the opposite side of the membrane and equilibrium was obtained after incubation of 12 hrs at 23° C. The association constants were determined by non-linear regression analysis. Concentrations of compounds analysed were determined by HPLC analysis by comparison against an internal control (diethyl-7-dimethylaminocoumarineacetamide). HPLC controls were run with an equimolar amount of control and analyte. The relative concentrations of each analyte were determined at both sides of the membrane. […] Each data point was recollected after regeneration of the dialysis setup by exposing the non-protein containing face of the membrane to 5 ml of PBS pH 7.2 twice for 4 to 10 hrs at 23° C.

The substance Phyllanthusiin E came in with an equilibrium dissociation constant (Kd) of 22.1 ± 1.2 µM.

The values above are taken from US8366935B2, “Phyllanthus extract” (Phytrix Inc., priority 2008, dated 2013).
